Measurements as given in PubChem BioAssay AID504715 (Sanford-Burnham Center for Chemical Genomics, 2011).
The entries are a selection whose mix differs from that of the whole data set. Calls of active or inactive are those of the source.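 How the source made its calls: active means compounds giving 40% or more inhibition at 20 µM in any one of the three replicates; inactive means the rest.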

Amino acid sequences for entries named in this document (tags omitted). A change or cut given only in a name is not applied to a line headed by its entry.
UniProt P12295: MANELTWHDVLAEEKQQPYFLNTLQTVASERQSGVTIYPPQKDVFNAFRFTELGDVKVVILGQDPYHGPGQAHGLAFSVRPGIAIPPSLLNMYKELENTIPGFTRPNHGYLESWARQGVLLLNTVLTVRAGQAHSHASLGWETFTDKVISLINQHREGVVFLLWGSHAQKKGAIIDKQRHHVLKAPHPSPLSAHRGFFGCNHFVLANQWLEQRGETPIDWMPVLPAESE

Biological target: Uracil-DNA glycosylase (Escherichia coli (strain K12)) (UniProt P12295)
Test: uracil-DNA glycosylase inhibition, oligo cleavage readout – biochemical, single concentration, fluorescence, FAM/TAMRA oligo, counter-screen for APOBEC3G inhibitor project, confirmation (AID 504715);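 further: plate controls were DMSO wells with UDG and oligo for no effect and DMSO wells lacking both for full effect; inhibitors lower the FAM signal released by uracil excision and alkaline cleavage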
Settings: UDG counterscreen, at 20 µM, hits give high values

Question: How did the inhibition turn out when `O=P(Nc1nccs1)(c1ccccc1)c1nc2ccccc2s1` (stereo unspecified) was run?
Answer: inactive: -4.26%
